Our source for the MONOCYTE values is ChEMBL document CHEMBL3885881, “DrugMatrix”.

The species entered for the series is Rattus norvegicus. In words: DrugMatrix - Regimen: Daily Repeat. Format: toxicity, organism-based, Sprague-Dawley. The arrangement: regimen Daily Repeat, gender Male, age 6-8 weeks. The settings on record: in vivo, iv, tissue Blood, vehicle 100 % SALINE.

Turning to GADOPENTETATE DIMEGLUMINE, the MONOCYTE (55 mg/kg, 120 h, dose level Low, time 5 day) was found to be 2.33%.

Sequence LIPOPOLYSACCHARIDE E. COLI O55:B5 showed an MONOCYTE (0 mg/kg, 72 h, dose level Control, time 3 day) of 1.83%.
